Test results as given in PubChem BioAssay AID2221 (Broad Institute, 2009).
The entries are a selection whose mix differs from that of the whole data set. Activity calls are given as the source filed them. No stated cut-off is given here; in the data, active means inhibition above about 30%; inconclusive means no clear call, values can overlap the other calls; inactive means below that.

The chains behind the UniProt entries cited, without tags or fusion partners.
UniProt P9WHJ3, whole entry: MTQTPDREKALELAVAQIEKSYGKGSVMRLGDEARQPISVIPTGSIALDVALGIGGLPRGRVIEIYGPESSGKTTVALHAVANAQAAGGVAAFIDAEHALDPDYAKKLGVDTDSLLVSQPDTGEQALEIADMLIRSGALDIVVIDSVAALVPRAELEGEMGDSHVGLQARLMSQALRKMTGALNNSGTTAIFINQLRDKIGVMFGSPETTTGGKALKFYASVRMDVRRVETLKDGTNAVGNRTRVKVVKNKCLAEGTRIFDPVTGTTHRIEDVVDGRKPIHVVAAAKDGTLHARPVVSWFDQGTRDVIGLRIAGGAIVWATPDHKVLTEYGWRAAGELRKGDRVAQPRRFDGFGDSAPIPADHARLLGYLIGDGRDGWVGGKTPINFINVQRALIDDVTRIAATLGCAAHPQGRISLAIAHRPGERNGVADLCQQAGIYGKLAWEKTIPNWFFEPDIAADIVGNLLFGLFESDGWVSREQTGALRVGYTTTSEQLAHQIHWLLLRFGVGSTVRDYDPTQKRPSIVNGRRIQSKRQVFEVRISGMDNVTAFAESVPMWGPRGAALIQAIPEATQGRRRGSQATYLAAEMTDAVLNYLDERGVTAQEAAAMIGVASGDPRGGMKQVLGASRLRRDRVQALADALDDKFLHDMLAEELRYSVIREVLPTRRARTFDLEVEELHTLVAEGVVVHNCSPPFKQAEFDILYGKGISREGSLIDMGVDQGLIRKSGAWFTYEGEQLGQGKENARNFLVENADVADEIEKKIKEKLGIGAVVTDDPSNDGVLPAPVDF

molecular target: Protein RecA (Mycobacterium tuberculosis (strain ATCC 25618 / H37Rv)) (UniProt P9WHJ3); experiment: Mtb RecA intein splicing inhibitors, primary screen, biochemical, fluorescence, HTS (AID 2221); conditions: cell-free RecA intein splicing, hits give high values, concentration not given here;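 further: 0% = vehicle wells and 100% = reference inhibitor control wells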

Compound	inhibition
O=[N+]([O-])c1cc([N+](=O)[O-])c(NCC2CCS(=O)(=O)C2)c([N+](=O)[O-])c1 (centres undefined)	active: 78.4%
Cc1cc(-c2cccc3ccccc23)c(C)cn1.O=[N+]([O-])c1cc([N+](=O)[O-])c(O)c([N+](=O)[O-])c1	inactive: 10.4%
O=[As](O)(c1ccccc1)c1ccc(O)cc1	inactive: -0.485%
CCOP(C)(=S)SCC(=O)NC(C)(CC)C(=O)O (centres undefined)	inactive: 0.277%
c1nnnn1CCn1cnnn1	inactive: 2.58%
CP(=O)(Nc1ccc(SC(F)(F)F)cc1)Oc1ccc(F)cc1 (centres undefined)	inactive: 9.35%
O=P(Nc1nccs1)(c1ccccc1)c1ccccc1	inactive: 1.35%
CC(C)C(=O)NC(Sc1ccccc1)C(Cl)(Cl)Cl (centres undefined)	inactive: 1.79%
Cc1ccccc1NP(C)(=O)Nc1ccccc1C	inactive: 1.37%
CP(=O)(Nc1ccc2c(c1)OCCO2)Oc1ccccc1 (centres undefined)	inactive: -0.668%
O=C(OCCCN1CCCC1)C(O)(c1ccccc1)C1CCCCC1 (centres undefined)	inactive: 0.214%
COc1ccccc1OP(C)(=O)Nc1c(C)n(C)n(-c2ccccc2)c1=O (centres undefined)	inactive: -3.24%
CC(=O)N1C2C3N(C(C)=O)C1C1N(C(C)=O)C(C(N1C(C)=O)N3C(C)=O)N2C(C)=O	inactive: 0.00159%
O=[N+]([O-])c1cc([N+](=O)[O-])c(CCNc2ccccc2)c([N+](=O)[O-])c1	inactive: 0.829%
CCc1ccc(OP(C)(=O)Nc2cccnc2)cc1 (centres undefined)	inactive: -0.65%
CP(=O)(Oc1ccccc1)N1CCOC1=O (centres undefined)	inactive: 5.24%
Cc1ccc(NP(=O)(Oc2ccccc2)Oc2ccccc2)nc1	inactive: -0.437%
COc1ccc(OP(C)(=O)Nc2ccc(Br)cc2)cc1 (centres undefined)	inactive: -2.52%
COc1ccc(C2=NCC(CBr)S2)cc1 (centres undefined)	inactive: 3.02%
CCN(CC)CC(O)COC(=O)C(O)(c1ccccc1)C1CCCCC1 (centres undefined)	inactive: -2.29%
CN(C)C(=O)OCCc1n(C)cc[n+]1C	inactive: 1.71%
CC(C)=N/N=C(\N)N[N+](=O)[O-]	inactive: -1.38%
CN(C)C(=O)c1c([N+](=O)[O-])cc([N+](=O)[O-])cc1[N+](=O)[O-]	inactive: 9.6%

Compound	inhibition
CC1CCN(C(=O)Oc2c(Cl)cc(Cl)c3cccnc23)CC1	inactive: 8%
Nc1ccc([As](=O)(O)c2ccc(N)cc2)cc1	inactive: -1.05%
CC(C)(C)c1ccc(OP(C)(=O)O)cc1	inactive: 1.33%
COc1ccccc1OP(C)(=O)Nc1ccccc1Br (centres undefined)	inactive: -1.18%
CP(=O)(Nc1ccc(Cl)cc1)Oc1ccc(F)cc1 (centres undefined)	inactive: 0.00846%
CCN(/C(=N/P(=O)(N1CCOCC1)N1CCOCC1)N1CCOCC1)c1ccc(OC)cc1	inactive: 0.382%
O=C(Nc1cc([As](=O)(O)O)ccc1O)c1ccccc1	inactive: 2.5%
CCOC(=O)c1ccc(NP(C)(=O)Oc2ccc(Cl)cc2)cc1 (centres undefined)	inactive: 2.77%
CP(=O)(OC12CC3CC(CC(C3)C1)C2)OC12CC3CC(CC(C3)C1)C2	inactive: 8.51%
Nc1ccc2c(ccc3cccnc32)n1.O=[N+]([O-])c1cc([N+](=O)[O-])c(O)c([N+](=O)[O-])c1	inactive: 6.02%
O=[N+]([O-])c1cccc(NC2=NCC(CBr)S2)c1 (centres undefined)	inactive: 4.57%
O=C(O)CNc1ccc([As](=O)(O)O)cc1	inactive: 0.375%
CC(C)(C)C(=O)NC(Sc1ccncn1)C(Cl)(Cl)Cl (centres undefined)	inactive: 3.09%
O=[N+]([O-])c1ncn(CCn2ncnc2[N+](=O)[O-])n1	inactive: -1.67%
CN(C(=O)Cc1ccc(Cl)c(Cl)c1)[C@H]1CCCC[C@@H]1N1CCCC1	inactive: 1.56%
Cc1ccc(NP(=O)(Oc2ccccc2F)Oc2ccccc2F)nc1	inactive: 1.02%
COc1ccccc1OP(C)(=O)Nc1ccc(C)c(C)c1 (centres undefined)	inactive: 0.98%
CCOP(=O)(Nc1ccccc1)OCC	inactive: -1.6%
Cc1cc(SC(NC(=O)c2ccc(F)cc2)C(Cl)(Cl)Cl)ncn1 (centres undefined)	inactive: -1.14%
COc1ccc(OP(C)(=O)Nc2ccccc2Br)cc1 (centres undefined)	inactive: -1.19%
CC(=O)Nc1ccc([As](=O)(O)O)cc1	inactive: 0.171%
Cc1cc(C)cc(OP(C)(=O)Nc2cccc(C(F)(F)F)c2)c1 (centres undefined)	inactive: 0.305%
O=P(Nc1nc2ccc(Cl)cc2s1)(c1ccccc1)c1ccccc1	inactive: 12.8%

Compound	inhibition
CCN(N=Nc1nonc1N)c1nonc1N	inactive: -3.06%
CP(=O)(OCCOc1ccccc1)OCCOc1ccccc1	inactive: -5.16%
CP(=O)(Nc1ccc(Cl)cc1Cl)Oc1ccccc1 (centres undefined)	inactive: 0.124%
Nc1cccc2ccc([As](=O)(O)O)cc12	inactive: 14.1%
Cc1nc2ccc3ccccc3c2o1.O=[N+]([O-])c1cc([N+](=O)[O-])c(O)c([N+](=O)[O-])c1	active: 44.5%
Cc1ccc(OP(=O)(Nc2nccs2)Oc2ccc(C)cc2)cc1	inactive: 1.26%
COc1ccc(OP(C)(=O)Nc2ccccn2)cc1 (centres undefined)	inactive: -3.61%
COc1ccccc1OP(=O)(Nc1ccc(C)cn1)Oc1ccccc1OC	inactive: 0.219%
CN(C)CCOC(=O)C(O)(c1ccccc1)C1CCCC1 (centres undefined)	inactive: 0.476%
Clc1ccc(Cl)c(NC2=NCC(CBr)S2)c1 (centres undefined)	inactive: 11.1%
CN1CCCC(OC(=O)C(c2ccccc2)c2ccccc2)C1 (centres undefined)	inactive: -1.11%
NC(=O)c1cc([N+](=O)[O-])cc([N+](=O)[O-])c1N	inactive: 0.175%
Cc1ccc(N/C(=N/P(=O)(N2CCOCC2)N2CCOCC2)N2CCOCC2)cc1	inactive: -2.21%
COc1ccccc1OP(C)(=O)Nc1ccc(Br)cc1 (centres undefined)	inactive: 0.425%
COc1ccccc1OP(C)(=O)Nc1ccc(C)cc1C (centres undefined)	inactive: 1.92%
CP(=O)(Nc1ccccn1)Oc1ccccc1 (centres undefined)	inactive: 1.47%
CCc1ccc(OP(C)(=O)O)cc1	inactive: -3.89%
O=[N+]([O-])c1cc([N+](=O)[O-])c(Nc2ccccn2)c([N+](=O)[O-])c1	active: 72.8%
CC(C)CC(=O)NC(Sc1ccc(Cl)cc1)C(Cl)(Cl)Cl (centres undefined)	inactive: 9.18%
Cc1c(NP(C)(=O)Oc2ccc(C(C)C)cc2)c(=O)n(-c2ccccc2)n1C (centres undefined)	inactive: -2.16%
Cc1c2non([O-])c-2c(C)[n+](=O)[n+]1[O-]	inactive: 19.1%
O=C(NC(Sc1ccncn1)C(Cl)(Cl)Cl)c1ccccc1 (centres undefined)	inactive: -2.65%
Oc1ccccc1CNc1ccccn1	inactive: 0.8%
